Laboratory results as given in publication PMC7815794, “Rab1-AMPylation by Legionella DrrA is allosterically activated by Rab1” (Nature Communications, 2021).

Columns and labels:
[1] = target: DrrA_(16-352)-D82C-D110A-D112A (L. pneumophila, UniProt Q5ZSQ3 16-352, D82C | D110A | D112A); assay: cross-linking
DrrA_(16-352)-L197C = DrrA_(16-352)-L197C (L. pneumophila, UniProt Q5ZSQ3 16-352, L197C); assay: cross-linking

Binder	binding result [1]	binding result (DrrA_(16-352)-L197C)
Rab1b_(3-174)-Q67A-R69BrC6K-His6 (domain or fragment) PEYDYLFKLLLIGDSGVGKSCLLLRFADDTYTESYISTIGVDFKIRTIELDGKTIKLQIWDTAGAEKFRTITSSYYRGAHGIIVVYDVTDQESYANVKQWLQEIDRYASENVNKLLVGNKSDLTTKKVVDNTTAKEFADSLGIPFLETSAKNATNVEQAFMTMAAEIKKRMG	binds	–
Rab1b_(3-174)-Q67A-R69BrC6K-Y77AMP-His6 (domain or fragment, BrC6K at position 69; AMP on Y77 (Y77AMP)) PEYDYLFKLLLIGDSGVGKSCLLLRFADDTYTESYISTIGVDFKIRTIELDGKTIKLQIWDTAGAEKFRTITSSYYRGAHGIIVVYDVTDQESYANVKQWLQEIDRYASENVNKLLVGNKSDLTTKKVVDNTTAKEFADSLGIPFLETSAKNATNVEQAFMTMAAEIKKRMG	binds	–
Rab8a_(6-176) loaded with GppNHp (domain or fragment, also called Rab8a:GppNHp; GTPase domain of Rab8a) DYLFKLLLIGDSGVGKTCVLFRFSEDAFNSTFISTIGIDFKIRTIELDGKRIKLQIWDTAGQERFRTITTAYYRGAMGIMLVYDITNEKSFDNIRNWIRNIEEHASADVEKMILGNKCDVNDKRQVSKERGEKLALDYGIKFMETSAKANINVENAFFTLARDIKAKMDKK	–	binds
